Test system: C57BL/6 mice
Experiment: In vivo toxicity analysis

Q: How did the “In vivo safety in mice” value (10 mg/kg daily intraperitoneal injection for seven days (method: six days)) turn out when `CC(C)C[C@@H]1NC(=O)[C@@H](CCCCN)NC(=O)[C@@H]2CSSC[C@H](NC(=O)[C@H](CC(C)C)NC(=O)[C@@H](CCCCN)NC(=O)[C@@H](CCCCN)NC(=O)[C@@H](N)CC(C)C)C(=O)N[C@@H](CSSC[C@@H](C(N)=O)NC(=O)[C@@H](CCCCN)NC1=O)C(=O)N[C@H](CCCCN)C(=O)N2` [Pep 6] was run?
A: Its value is “exceptionally biologically secure”.

Q: What about the “Decrease in body weight of treated mice” value (10 mg/kg daily intraperitoneal injection, first day) of the same compound?
A: Its value is “approximately 1 g”.

— paper PMC10935098 (Molecules, 2024)
